PubChem BioAssay AID1259414 | Drosophila RNAi Screening Center, 2018

Aim: 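Genome-wide screen for host control of endosymbiont load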 (primary screen)
System: Drosophila JW18 cells infected with Wolbachia
Knock-down reagent: long dsRNA against Drosophila genes, 0.25 µg dsRNA per well of a 384-well plate
Duration: 5 days
Challenge: cells persistently infected with Wolbachia before knock-down; no added drug
Read-out: 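Imaged fluorescence in situ signal for Wolbachia 23S rRNA per DAPI-counted host cell, given as a robust z-score within each plate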
Direction: Wolbachia per cell robust z: higher = more Wolbachia per host cell than the plate typical
Active means: 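Active if absolute robust z reaches 1.5 in two or more of three replicates, leaving out multi- or no-target dsRNAs, genes unexpressed in JW18 and A1 wells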
In all, the deposit lists about 24,000 reagents; below is a random part of those that have a named target and a result. Over the whole deposit, about 1,210 (5%) got an active call. 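Inactive calls also include excluded dsRNAs with several or no targets, genes unexpressed in JW18, and well A1, regardless of score.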 The numbers tell different reagents against one gene apart. No sequences are given here.

target gene	reagent	Wolbachia per cell robust z, rep 1	Wolbachia per cell robust z, rep 2	Wolbachia per cell robust z, rep 3	Outcome
CG10029	1	1.58	1.46	-0.167	inactive
CG14840	1	0.909	0.452	0.892	inactive
CG14840	2	0.386	-0.0682	-0.00514	inactive
Ir54a (Ionotropic receptor 54a)	1	0.292	1.81	-0.613	inactive
CG11044	1	-0.37	-0.00243	0.169	inactive
CG11044	2	0.409	-0.66	0.567	inactive
Fuca (alpha-L-fucosidase)	1	-0.96	-4.19	-6.24	inactive
CG31191	1	-0.34	0.543	-0.492	inactive
CG30440	1	-1.04	-8.72	-1.48	inactive
CG30440	2	1.17	0.803	0.491	inactive
CG30440	3	-2.05	-0.641	-0.618	inactive
Jheh3 (Juvenile hormone epoxide hydrolase 3)	1	-0.661	1.15	1.39	inactive
Jheh3 (Juvenile hormone epoxide hydrolase 3)	2	0.375	-0.817	1.18	inactive
MFS9 (Major Facilitator Superfamily Transporter 9)	1	0.106	0.328	-2.63	inactive
Est-6 (Esterase 6)	1	0.778	-1.51	-0.32	inactive
Est-6 (Esterase 6)	2	-0.305	0.516	0.453	inactive
Snmp1 (Sensory neuron membrane protein 1)	1	0.64	-4.27	-5.3	active
l(3)72Dp (lethal (3) 72Dp)	1	0.287	1.47	0.716	inactive
ais (aramis)	1	0.414	-1.28	0.701	inactive
ais (aramis)	2	0.532	0.25	0.371	inactive
CG31638	1	0.497	0.818	-0.248	inactive
CG31638	2	-0.331	-0.5	0.226	inactive
CG31638	3	0.655	0.326	1.9	inactive
Dnz1 (DNZDHHC/NEW1 zinc finger protein 11)	1	1.08	0.4	0.771	inactive
Dnz1 (DNZDHHC/NEW1 zinc finger protein 11)	2	-0.0997	-1.19	-0.525	inactive
Exn (Ephexin)	1	0.469	-1.07	-2.66	inactive
Exn (Ephexin)	2	0.799	-0.515	0.85	inactive
Exn (Ephexin)	3	-0.12	0.0938	1.68	inactive
Exn (Ephexin)	4	0.13	1.59	0.897	inactive
yellow-b	1	0.0763	-0.795	0.34	inactive

Hits, of those listed so far:
target gene	reagent	Wolbachia per cell robust z, rep 1	Wolbachia per cell robust z, rep 2	Wolbachia per cell robust z, rep 3	Outcome
Snmp1 (Sensory neuron membrane protein 1)	1	0.64	-4.27	-5.3	active

More entries follow.
target gene	reagent	Wolbachia per cell robust z, rep 1	Wolbachia per cell robust z, rep 2	Wolbachia per cell robust z, rep 3	Outcome
ftz (fushi tarazu)	1	-0.139	-1.84	-0.0515	inactive
ftz (fushi tarazu)	2	0.982	0.104	1.17	inactive
ftz (fushi tarazu)	3	0.358	0.302	0.422	inactive
Claspin	1	-2.36	-1.07	0.43	inactive
Tep5Psi (Thioester-containing protein 5 pseudogene)	1	-0.423	-1.32	-0.196	inactive
Tep5Psi (Thioester-containing protein 5 pseudogene)	2	0.428	0.125	0.0202	inactive
Cpr60D (Cuticular protein 60D)	1	0.588	1.1	0.494	inactive
link	1	0.571	-0.681	-0.806	inactive
link	2	-1.44	-1.7	-1.93	active
link	3	-3.16	0.501	-0.0474	inactive
CG13247	1	-2.58	-0.694	-1.5	active
Dys (Dystrophin)	1	-1.15	-0.294	-0.665	inactive
Dys (Dystrophin)	2	-4.78	-3.65	1.06	active
Dys (Dystrophin)	3	-1.4	-4.56	1	inactive
Dys (Dystrophin)	4	-1.06	-3.88	0.344	inactive
Dys (Dystrophin)	5	0.684	-0.71	0.955	inactive
Dys (Dystrophin)	6	0.373	-0.531	0.686	inactive
Dys (Dystrophin)	7	0.695	0.3	1.53	inactive
Dys (Dystrophin)	8	-0.0207	0.132	0.124	inactive
